Human monoclonal antibodies against the spike receptor-binding domain (heavy:light variable regions). IC50 against pseudoviruses bearing the spike of naturally observed variants; lower = stronger; >10 µg/ml means not reached at the top dose. No active / inactive call. The stated detection limit is 0.0005 µg/ml; values near or below 0.001 µg/ml lie at the floor of the assay.
B1: BD56-694 (protein)
chain 1: QVQLVESGGGVDQPGRSLRLSCAASGFIFRNYNMHWVRQAPGKGLEWVAVIWYDGSNKYYADSVKGRFTISRDNSKNTLYLQMNSLRAEDTAVYYCARDPEITAVNIDYWGQGTLVTVSS
chain 2: DVVLTQSPLSLPVTLGQPASISCRSSQSLVHSDGNIYLNWFQQRPGQSPRRLIYKVSNRDSGVPDRFSGSGSGTDFTLKISRVEAEDVGVYHCMQGTHWPYTFGQGTKLEIK
B2: BD56-729 (protein)
chain 1: QVQLVESGGGVVQPGRSLRLSCAASGFAFSTYAMHWVRQAPGKGLDWVAVMSYDGSNKYYADSVKGRFTISRDNSKNTLYLQMNSLRAEDTAVYYCAKTETYYYDRSTYYHYYGMDVWGQGTTVTVSS
chain 2: QSVLTQPPSVSAAPGQKVTISCSGSSSNIGNNYVSWYQQLPGTAPKIVIYDNYKRPSGIPDRFSGSKSGTSATLGITGLQTGDEADYYCGTWDSSLSAGVFGGGTKLTVL
B3: BD56-714 (protein)
chain 1: QVQLVQSGGGVVQPGRSLRLSCTASGFTFSDYPMHWVRQAPGKGLEWVAGISYDGSSKYYADSVKAPITISRDNSENTLFLQMNSLRPEDTALYYCARAAGHPGDYFDYWAQGTLVTVSS
chain 2: SSVLTQPPSVSVAPGKTARITCGGNNIGSKSVHWYQQKPGQAPVLVIYYDSGRPSGIPERFSGSNSGNTATLTISRVEAGDEADYFCQVWDSTSDHPGWVFGGGTKVTVL
B4: BD56-724 (protein)
chain 1: QVQLVESGGGVVRPGRSLRLSCAASGFTFSLYTMYWVRQAPGKGLEWVALTSYDGSKIYYADSVRGRFTISRDNSKNALYLQMNSLRGDDTALYFCVRDGISYYGSETYKGLDYWGQGTLVTVSS
chain 2: SSELTQPPSVSVSPRQTARITCSGDALANQYAYWYQQKPGQAPVLVIYKDSERPSGIPERFSGSSSGTAVTLTISGVQAEDEADYYCQSADNSPTYVIFGGGTKLTVL
B5: BD56-727 (protein)
chain 1: QVQLVESGGGVVQPGRSLRLSCAVSGFTFNTYAIHWVRQAPGKGLEWVALISFDGNNKFYADSVKGRFTISRDNSKNTLFLQMNSLRAEDTAVYFCARPNYFDTSGYYPVAFDFWGQGTLVTVSS
chain 2: SYVLSQPPSVSVAPGKTAGITCGGDSIGSKSVHWYQQKPGQAPVLVIFYDKERPSGIPERFSGSNSGNTATLTISRVEAGDEADYYCQVWDTAVVFGGGTKLTVL
B6: BD56-723 (protein)
chain 1: EVQLVESGGGLVQPGRSLRLSCTASGFTFADYDMNWVRQAPGKGLEWVGLIRSKAYGGTTEYAASVKGRFIISRDDSKSIAYLQMNSLKTEDTAVYYCSRGGYQDYLWFGESTLFDYWGQGTLVTVSS
chain 2: EIVLTQSPGTLSLSPGERATLSCRASQSISNSYLVWYQQKPGQAPRLLIYGASSRAIGIPDRFSGSGSGTDFTLTISRLEPEDFAVYYCQQYGSSPFTFGPGTKVDIK
B7: BD56-718 (protein)
chain 1: EVQLLESGGDLVQPGGSLRLSCVVSGFTFRRYAMNWVRQAPGKGLEWVSAISGSGDSTYYADSVKGRFTISRDNSKNTLFLQLNSLRAEDTAVYYCAKGPREGSDYFEFWGQGTLVTVSS
chain 2: DIQMTQSPSTLSASVGDRVTITCRASQSISSWLAWYQQKPGKAPKLLIFDASSLETGVPSRFSGSGSGTEFTLTISSLRPEDFATYYCQQYNSYSYTFGQGTKLEIK
B8: BD56-739 (protein)
chain 1: QVTLRESGPALVKPTQTLTLTCTFSGFSLSTSGMCVSWIRQPPGKALEWLALIDWDDDKYYSASLKTRLTISKDTSKNQVVLTMTNMDPVDTATYYCARISSDYGYYFDYWGQGTLVTVSS
chain 2: QSVVTQPPSASGTPGQRVTISCSGSSSNMGSNTVNWYQQLPGTAPKLLIYTNNQRPSGVPDRLSGSKSGTSASLAISGLQSEDEADYYCAAWDDSLNGWVFGGGTKLTVL
B9: TAU-2230 (protein)
chain 1: EVQLLESGGGLVQPGGSLRLSCAASGFTFSSYAMNWVRQAPGKGLEWVSVISGSGGRTYYADSVKGRFTISRDNSKNTLYLQMNSLRAEDTAVYYCAKDLDIVVVITGDAFDIWGQGTMVTVSS
chain 2: SYELTQPPSVSVSPGQTARITCSGDALPRHYSYWYQQKPGQAPVLLIYKDSERPSGIPERFSGSSSGTTVTLTISGVQAEDEADYYCQSADSSGTYRVFGIGTKVTVL
B10: BD56-691 (protein)
chain 1: QVQLVESGGGVVQPGRSLRLSCATSGFTFNKYGMHWVRQAPGKGLDWVAVISYDGSAKYNGDSVKGRFTISRDNSKNTLYLQINSLRPEDTAVYFCAKDPYQYGSGSNNYFDYWGQGTLVTVSS
chain 2: SYVLTQAPSVSVAPGQTARITCAENNIGSKSVHWYRQKPGQAPVLVVFDDSDRPSGIPERFSGSNSGSTATLTISKVEAGDEADYYCQVWDSGDWVFGGGTKLTVL
B11: BD56-711 (protein)
chain 1: QVQLQESGPGLVQPSKTLSLTCTVSGGSISSGGYYWSWIRQHAGKGLEWIGFIYYSGNTYYNPSLKSRVTISVDTSKNQFSLKLSSVTAADTAVYYCARDGTMVQGVFDYWGQGILVTVSS
chain 2: EIVLTQSPATLSLSPGERATLSCRASQSVSSYLAWYQQKPGQAPRLLIYDASYRATGIPARFSGSGSGTDFTLTISSLEPDDFAVYYCQQRYSWPPFTFGQGTKLDIK
B12: BD56-709 (protein)
chain 1: EVQLVESGGGLVLPGRSLRLSCTASGFTFDDYAMHWVRQAPGKGLEWVSGISWNSDSIAYGDSVKGRFTISRDNAKNSLYLQMNSLRAEDTALYYCAKDGGVNWGNDYGMDVWGQGTTVTVSS
chain 2: DIQMTQSPSSLSASVGDRVTITCRASQTIGNYINWYQQKPGTAPKLLIYATSSLQSGVPSRFSGSGSGTEFTLTISSLQPADFATYYCQQSYGSPPTFGGGTKVEIK

How the values were obtained:
Experiment in all cases: pseudovirus neutralization IC50; higher = weaker neutralization
[1] = biological target: SARS-CoV-2 Omicron BA.1 spike pseudovirus
Experimental: (§1)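 Single-round VSV luciferase pseudovirus mixed with antibody dilutions for 1 h and put on Huh-7 cells for about a day; IC50 from the dose curve.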

[2] = biological target: SARS-CoV-2 Omicron BA.2 spike pseudovirus
Experimental: as §1

[3] = biological target: SARS-CoV-2 Omicron BA.2.75 spike pseudovirus
Experimental: as §1

[4] = biological target: SARS-CoV-2 Omicron BA.5 spike pseudovirus
Experimental: as §1

[5] = biological target: SARS-CoV-2 Omicron BQ.1.1 spike pseudovirus
Experimental: as §1

[6] = biological target: SARS-CoV-2 Omicron XBB spike pseudovirus
Experimental: as §1

[7] = biological target: SARS-CoV-2 early D614G spike pseudovirus
Experimental: as §1

Binder | pseudovirus neutralization IC50 [1] | pseudovirus neutralization IC50 [2] | pseudovirus neutralization IC50 [3] | pseudovirus neutralization IC50 [4] | pseudovirus neutralization IC50 [5] | pseudovirus neutralization IC50 [6] | pseudovirus neutralization IC50 [7]
B1 | 1.77 µg/mL | 1.66 µg/mL | 1.82 µg/mL | 1.67 µg/mL | 3.9 µg/mL | 4.81 µg/mL | > 10 µg/mL
B2 | 0.212 µg/mL | 0.252 µg/mL | 0.254 µg/mL | > 10 µg/mL | > 10 µg/mL | > 10 µg/mL | 0.306 µg/mL
B3 | > 10 µg/mL | > 10 µg/mL | > 10 µg/mL | > 10 µg/mL | > 10 µg/mL | > 10 µg/mL | > 10 µg/mL
B4 | 3.66 µg/mL | 4.17 µg/mL | 3.19 µg/mL | 3.25 µg/mL | 2.17 µg/mL | 4.43 µg/mL | 4.46 µg/mL
B5 | 4.4 µg/mL | 5.99 µg/mL | 6.39 µg/mL | > 10 µg/mL | > 10 µg/mL | > 10 µg/mL | > 10 µg/mL
B6 | 4.74 µg/mL | 6.42 µg/mL | 4.43 µg/mL | 5.1 µg/mL | > 10 µg/mL | 5.59 µg/mL | 1.06 µg/mL
B7 | 3.26 µg/mL | 3.49 µg/mL | 3.96 µg/mL | 3.95 µg/mL | 6.66 µg/mL | 7.1 µg/mL | > 10 µg/mL
B8 | > 10 µg/mL | > 10 µg/mL | > 10 µg/mL | > 10 µg/mL | > 10 µg/mL | > 10 µg/mL | > 10 µg/mL
B9 | > 10 µg/mL | > 10 µg/mL | > 10 µg/mL | > 10 µg/mL | > 10 µg/mL | > 10 µg/mL | 1.04 µg/mL
B10 | > 10 µg/mL | > 10 µg/mL | > 10 µg/mL | > 10 µg/mL | > 10 µg/mL | > 10 µg/mL | > 10 µg/mL
B11 | > 10 µg/mL | > 10 µg/mL | > 10 µg/mL | > 10 µg/mL | > 10 µg/mL | > 10 µg/mL | > 10 µg/mL
B12 | 3.97 µg/mL | 3.82 µg/mL | 5.56 µg/mL | 4.85 µg/mL | > 10 µg/mL | 4.64 µg/mL | > 10 µg/mL
